Data source: PubChem BioAssay AID504761 (Drosophila RNAi Screening Center, 2011)

- Assay: 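Fly genes whose silencing reduces dengue virus type 2 infection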 (primary screen)
- Cell system: D.Mel-2 cells from Drosophila
- Reagents: long dsRNA against Drosophila genes
- Conditions: infection with dengue virus type 2; dose and infection time not stated
- Measurement: 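Per well on two replicate plates, imaging gave the percent of cells positive for viral envelope protein, ranked by infection, and a nuclear count of cells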
- Reading the numbers: infection score: higher = more virus-infected cells; cell count: higher = more cells in the well
- Call rule: 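Very low infection ranking in both replicate wells (chance probability at most 0.065), then a retest showing infection dropped 1.5-fold or more at p below 0.05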
- Calls: active = confirmed: knock-down lowers infection; inactive = not picked or not confirmed
The screen tested about 22,000 reagents; below is a random part of those with a known target gene and a result. In the full data, 116 (0.52%) are marked active. 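Calls depend on retest data that are not deposited; infection was ranked per plate without normalising between plates; the unit of the infection score is not given.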 The raw values are shown without normalisation. Reagents against one gene are numbered here. A plus sign joins genes that one reagent is predicted to hit. Further read-outs or replicates are left out here. The record does not give: the amount of reagent, the time to read-out.

Depletion of yl (GeneID 32367) #1 gave: infection score, replicate 1 = 4.26; cell count, replicate 1 = 5936; inactive.
yl (GeneID 32367) #2 gave infection score, replicate 1 = 10.9; cell count, replicate 1 = 4814; inactive.
Knock-down of CG7768 (GeneID 39573) resulted in: infection score, replicate 1 = 10.1; cell count, replicate 1 = 7033; inactive.
With knock-down of Atg16 (GeneID 326115) #1, the record shows infection score, replicate 1 = 9.7; cell count, replicate 1 = 5843; inactive.
Knock-down of Atg16 (GeneID 326115) #2 resulted in: infection score, replicate 1 = 1.44; cell count, replicate 1 = 6121; inactive.
For Atg16 (GeneID 326115) #3, the values are infection score, replicate 1 = 0.45; cell count, replicate 1 = 6285; inactive.
After knock-down of CG11594 (GeneID 38473) the results were infection score, replicate 1 = 10.5; cell count, replicate 1 = 1532; inactive.
mRpS18A (GeneID 326141) gave infection score, replicate 1 = 13.2; cell count, replicate 1 = 4894; inactive.
Against CG31780 + CG18477 the deposit lists infection score, replicate 1 = 12.3; cell count, replicate 1 = 5882; inactive.

Targets listed so far whose target name starts with A or a:
Atg16 (GeneID 326115) #1 → infection score, replicate 1: 9.7; cell count, replicate 1: 5843; call: inactive
Atg16 (GeneID 326115) #2 → infection score, replicate 1: 1.44; cell count, replicate 1: 6121; call: inactive
Atg16 (GeneID 326115) #3 → infection score, replicate 1: 0.45; cell count, replicate 1: 6285; call: inactive

Additional results follow.
Against bru2 (GeneID 250811) #1 the deposit lists infection score, replicate 1 = 9.85; cell count, replicate 1 = 6029; inactive.
Against bru2 (GeneID 250811) #2, the values are infection score, replicate 1 = 13.5; cell count, replicate 1 = 5005; inactive.
With knock-down of bru2 (GeneID 250811) #3, the record shows infection score, replicate 1 = 0.14; cell count, replicate 1 = 7171; inactive.
With knock-down of bru2 (GeneID 250811) #4 the results were infection score, replicate 1 = 2.8; cell count, replicate 1 = 6175; inactive.
Silencing of Osi2 (GeneID 40756) #1 came out at: infection score, replicate 1 = 6.04; cell count, replicate 1 = 6171; inactive.
After knock-down of Osi2 (GeneID 40756) #2, the screen gave infection score, replicate 1 = 21.2; cell count, replicate 1 = 4875; inactive.
With knock-down of Slik (GeneID 37893) #1 the results were infection score, replicate 1 = 15.6; cell count, replicate 1 = 6358; inactive.
With knock-down of Slik (GeneID 37893) #2, the screen gave infection score, replicate 1 = 10.9; cell count, replicate 1 = 2633; inactive.
CG10793 (GeneID 31308) gave infection score, replicate 1 = 13.1; cell count, replicate 1 = 6215; inactive.
With knock-down of Skp2 + CG1103 #1, the record shows infection score, replicate 1 = 12.9; cell count, replicate 1 = 6526; inactive.
Skp2 + CG1103 #2 showed infection score, replicate 1 = 2.58; cell count, replicate 1 = 6278; inactive.
Depletion of CG12490 (GeneID 37623) came out at: infection score, replicate 1 = 8.35; cell count, replicate 1 = 6733; inactive.
